Results of unrelated studies side by side (data: NIAID ChemDB).

Shared fields: tests in culture; species: Measles virus; method: plaque count; endpoint: EC50

Conditions beyond the fields shown may differ between rows.

compound | strain or isolate | cells | value
CSc1nsc(-c2ccccc2)c1C(N)=O | Edmonston | HEP-2 | >250 µg/mL
CC[C@H](/C=C/[C@@H](C)[C@H]1CC[C@H]2[C@@H]3CC(=O)[C@@]4(Cl)C[C@@H](F)CC[C@]4(C)[C@H]3CC[C@]12C)C(C)C | MV/Brazil/001/91 | VERO | 32 µM
CCCSc1nsc(-c2ccccc2)c1C(=O)OC | Edmonston | HEP-2 | >50 µg/mL
CC[C@@H](C(C)C)[C@@H](O)[C@H](O)[C@@H](C)[C@H]1CC[C@H]2[C@@H]3CC(=O)[C@H]4C[C@@H](Br)CC[C@]4(C)[C@H]3CC[C@]12C | MV/Brazil/001/91 | VERO | 76 µM
C#Cc1c(C(N)=O)ncn1[C@@H]1O[C@H](CO)[C@@H](O)[C@H]1O | SSPE Yamagata-1 | VERO | 0.32 µg/mL
CC[C@@H](C(C)C)[C@@H](O)[C@H](O)[C@@H](C)[C@H]1CC[C@H]2[C@@H]3CC(=O)C4C[C@@H](F)CC[C@]4(C)[C@H]3CC[C@]12C | MV/Brazil/001/91 | VERO | 7 µM
OC[C@H]1O[C@@H]2O[C@H]3[C@H](O)[C@@H](O)[C@@H](O[C@H]4[C@H](O)[C@@H](O)[C@@H](O[C@H]5[C@H](O)[C@@H](O)[C@@H](O[C@H]6[C@H](O)[C@@H](O)[C@@H](O[C@H]7[C@H](O)[C@@H](O)[C@@H](O[C@H]8[C@H](O)[C@@H](O)[C@@H](O[C@H]1[C@H](O)[C@H]2O)O[C@@H]8CO)O[C@@H]7CO)O[C@@H]6CO)O[C@@H]5CO)O[C@@H]4CO)O[C@@H]3CO | CAM/RB | VERO | >2560 µM
Nc1nccc2c1ncn2[C@@H]1C[C@H](CO)[C@@H](O)[C@H]1O | Niigata-1 | VERO | 2.2 µg/mL
OCC1OC2OC3C(CO)OC(OC4C(CO)OC(OC5C(CO)OC(OC6C(CO)OC(OC7C(CO)OC(OC8C(CO)OC(OC9C(CO)OC(OC1C(O)C2O)C(O)C9O)C(O)C8O)C(O)C7O)C(O)C6O)C(O)C5O)C(O)C4O)C(O)C3O | CAM/RB | VERO | >2560 µM
CC[C@@H](C(C)C)[C@H](O)[C@@H](O)[C@@H](C)[C@H]1CC[C@H]2[C@@H]3CC(=O)C4C[C@@H](F)CC[C@]4(C)[C@H]3CC[C@]12C | MV/Brazil/001/91 | VERO | 1 µM
Nc1ncnc2c1ccn2[C@@H]1O[C@H](CO)[C@@H](O)[C@H]1O | Niigata-1 | VERO | >0.64 µg/mL
CCCSc1nsc(-c2ccccc2)c1C#N | Edmonston | HEP-2 | >200 µg/mL
Nc1ncnc2c1ncn2[C@@H]1C=C(CO)[C@@H](O)[C@H]1O | Niigata-1 | VERO | 6.5 µg/mL
CC[C@@H](C(C)C)[C@H](O)[C@@H](O)[C@@H](C)[C@H]1CC[C@H]2[C@@H]3CC(=O)[C@@]4(O)C[C@@H](F)CC[C@]4(C)[C@H]3CC[C@]12C | MV/Brazil/001/91 | VERO | 6 µM
Nc1cc2[nH]cnc2c(=O)[nH]1 | Niigata-1 | VERO | 0.7 µg/mL
N#Cc1c(SCCCCBr)nsc1-c1ccccc1 | Edmonston | HEP-2 | >25 µg/mL
NC(=O)c1ncn([C@@H]2O[C@H](CO)[C@@H](O)[C@H]2O)c1O | Sugiyama | VERO | 1.9 µg/mL
CC[C@@H](C(C)C)[C@@H](O)[C@H](O)[C@@H](C)[C@H]1CC[C@H]2[C@@H]3CC(=O)[C@@]4(O)C[C@H](O)[C@H](O)C[C@]4(C)[C@H]3CC[C@]12C | MV/Brazil/001/91 | VERO | 131 µM
NC12CC3CC(CC(C3)C1)C2 | Yamagata-1 | VERO | 90 µg/mL
NC(=O)c1ncn([C@@H]2O[C@H](CO)[C@@H](O)[C@H]2O)n1 | Sugiyama | HeLa | 8 µg/mL
NC(=O)c1[nH]nc([C@@H]2O[C@H](CO)[C@@H](O)[C@H]2O)c1O | Niigata-1 | VERO | 0.11 µg/mL
CC[C@@H](C(C)C)[C@@H](O)[C@H](O)[C@@H](C)[C@H]1CC[C@H]2[C@@H]3CC(=O)[C@@]4(O)C[C@@H](OC(C)=O)CC[C@]4(C)[C@H]3CC[C@]12C | MV/Brazil/001/91 | VERO | 21 µM

The first 2 rows once more:

compound,strain or isolate,cells,value
CSc1nsc(-c2ccccc2)c1C(N)=O,Edmonston,HEP-2,>250 µg/mL
CC[C@H](/C=C/[C@@H](C)[C@H]1CC[C@H]2[C@@H]3CC(=O)[C@@]4(Cl)C[C@@H](F)CC[C@]4(C)[C@H]3CC[C@]12C)C(C)C,MV/Brazil/001/91,VERO,32 µM

ECn is the concentration giving n% inhibition of infection, replication or growth.